Human monoclonal antibodies against the spike receptor-binding domain (heavy:light variable regions). IC50 against pseudoviruses bearing the spike of naturally observed variants; lower = stronger; >10 µg/ml means not reached at the top dose. No active / inactive call. The stated detection limit is 0.0005 µg/ml; values near or below 0.001 µg/ml lie at the floor of the assay.
B1: BD55-6384 (protein)
chain 1: QVQLVESGGGVVQPGRSLRLSCAVSGFTFRNYAIHWVRQAPGKGLEWVAAMSYDGNDQYYPDSVKGRFTISRDNSRNTLFLQMNNLRAEDTAVYYCAKVEGAYCSGGDCLVAAFDYWGPGTLVSVSS
chain 2: EIVLTQSPGTLSLSPGERATLSCRASQSVSSNYLAWYQQKPGQAPRLLMSFTSSRATGIPDRFSGSGSGTVFTLTITRLEPEDFAVYYCQQYGTSPLTFGGGTKVEIK
B2: BD55-6386 (protein)
chain 1: QVQLVESGGGVVQPGRSLTLSCAASGFTFSLYAIHWVRQAPGKGLEWVAVISHDVTNKYYADSVKGRFTISRDSSKNTVFLQMNSLRAEDSAVYYCAIRGGSGAVDRGYYFDYWGQGTLVTVSS
chain 2: DIQMTQSPSSLSASVGDRVTITCRASQTISTYLNWYQQKPGKAPKLLIYGASSLRSGVPSRFSGSGSGTDFTLTISSLQREDFATYYCQQSYNTRPLTFGAGTKVEIK
B3: BD55-6392 (protein)
chain 1: EVQLLESGGGLVQPGGSLRLSCAASGFSFSGYAMSWVRQAPGKGLELVSTISSSGTKTYYADSVKGRFAISRENSKNTLFLQMNSLRAEDTAVYYCAKEEGGGWPGFDHWGQGALVTVSS
chain 2: QSVLTQPPSASGTPGQRVTISCSGSVYNIGNNFVYWYQQLPGTAPKLLIYRNDQRPSGVPDRFSGSKSGTSASLAISGLRPEDEADYYCAAWDDSLRVFGGGTKLTVL
B4: BD55-6398 (protein)
chain 1: QVPLQESGPGLVKPSETLSLTCTVSGGSINSYYWNWIRQAPGKGLEWIGNIYYSGSTSYNPSLKSRVTISVDTSKNQFSLKLTSVTAADTAVYYCARGGFYDPYYFDSWGQGTLVTVSS
chain 2: SFELTQPPSVSVSPGQTARITCSANALPMQYAYWYQQKPGQAPVLVIYKDIERASGIPERFSGSSSGATVTLTISGVQAEDEADYYCQSPDSSGSYVVFGGGTKVTVL
B5: BD55-6401 (protein)
chain 1: QVQLVQSGSELKKPGASVKVSCKTSGYIFTNYAINWVRQAPGQGLEWMGWIDTNTGNPTSARDFTGRFVFSLDTSVSTAYLQINGLEPEDTAVYYCARADRNYFGYERFDIWGQGTMVIVSS
chain 2: DIQMTQSPSSLSASVGDRVTITCRASQSISDYVNWYQQKPGKAPKVLIYAASNLQSGVPSRFSGRGSGTDFTLTITSLQPEDFATYYCQQTYSSHLLSFGGGTKLEIK
B6: BD55-6406 (protein)
chain 1: QLQLQESGPGLVKPSETLSLTCSVSGGSVNSRSYQWGWIRQSPGKGLEWIGSMYYRGTIQYSPSLKSRVTISVDTSKNQVSLNLRSVTAADTAVYYCARCNGDAYFDSWGQGTLVAVSS
chain 2: DIQMTQSPSTLSASVGDRVTITCRASQSISRWLAWYQQKPGKAPKLLIYMASILESGVPSRFSGSGSGTDFTLTISSLQPDDFATYYCQQYNSDPYTFGQGTNLEIE
B7: BD55-6407 (protein)
chain 1: QVRLVQSGAEVKKPGASVKVSCQASGGTFSSPDFNWLRQAPGQGPEWMGWMNPSSGDTGYAHKFQGRVTMTRNTSISTAYMELSSLRSEDTAVYYCARGRDKSGWFVADVDYYGMDVWGQGTTVTVSS
chain 2: DIQMTQSPSSLSASVGDRVTITCRASQSISYYLNWYQQKPGKAPKFLIYAASSLQSGVPSRFSGSGSGTDFTLTISSLQPEDFATYYCQQGYSTPPTFGQGTRLEIK
B8: BD55-6408 (protein)
chain 1: LQLQESGPGLVKPSETLSLTCTVSGGSIRGSNYYWGWIRQPPGKGLEWIANIYFSGITYYNPSLKSRVTISVDTSNNQFSLDLRSVTAADTAVYYCARESGPISGYDNGERYHGMDVWGRGTTVTVSS
chain 2: YVLTQPPSVSVAPGQTARITCGGANIGTKSVHWYQQTPGQAPVQVVHDDSDRPSGIPDRFSGSNSGNTATLTISRVEAGDEADYFCQVWDNSRDHSSSWVFGGGTKLTVL
B9: BD55-6409 (protein)
chain 1: QVQVVQSESELKKPGASVKISCKASGYTFTSYAMNWVRQAPGQGLEWMGWINTDTGNPTYAQGFTGRFFFSWDTSVSTAYLHISGLKAEDTAVYYCARADRDYYGYESFDIWGQGTMVTVSS
chain 2: DIQMTQSPSSLSASVGDRVTITCRASQSISNYLNWYQQKSGKAPKVLIYAASTLRSGVPSRFSGSGSGTDFTLTISSLQPEDFATYYCQQTYSSHLLTFGGGTKV
B10: BD55-6411 (protein)
chain 1: QITLEESGPTLVKPTQTLTLTCTFSGFSLSTTEMGVGWIRQPPGKAPEWLALIYWDDAKRYSPSLESRLTITKDTSKNQVVLRMTNMDPVDTATYYCARWYYDISTAGLYYMDVWGKGTTVTVSS
chain 2: DIVMTQTPLSSPVTLGQTASISCKSSQSLVHSDGNTYLSWLQQRPGQPPRVLIYKISNRVSGVPDRFSGSGAVTEFTLKISRVEPEDVGVYYCMQATQFPYEMYTFGQGTKLEIK
B11: BD55-6421 (protein)
chain 1: EVQLVESGGGLIQPGGSLRLSCTASGFSVSSKYMSWVRQAPGKGLEWVSLIYSGYSTIYADSVKGRFTISRDSSKNTLNLQMNSLRAEDTAVYYCARGGGDYPWWYFDLWGRGTLVTVSS
chain 2: DIQMTQSPSSLSASIGDRVTITCRASQSIDTYLNWYQQKPGKAPNLLIYAASSLQSGVPSRFSGSGSGTDFTLTISSLQPEDLATYYCQLSSSTLTFGGGTKVEIK
B12: BD55-6427 (protein)
chain 1: QVQLVQSGAEVKKPGASVKVSCRTSGYTFSNYGISWVRQAPGQGLEYMGWISAYRGNTNYAQKFQGRLSMATDTSTTTAYMELRNLRSDDTAVYYCARGGAITMSVVPFYHFETWGQGTLVTVSS
chain 2: QSALIQPASVSGSPGQSITLSCTGTSDDIGSYNFVSWYQQHPGKAPKLIIYEGSKRPSGISDRFSGSKSGNTASLTISGLQAEDEADYYCCSYAGADTFYVLGTGTTVTVL

What follows are binders tested against SARS-CoV-2 Omicron BA.1 spike pseudovirus (assay: pseudovirus neutralization IC50; higher = weaker neutralization).
Protocol: (§1)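 Single-round VSV luciferase pseudovirus mixed with antibody dilutions for 1 h and put on Huh-7 cells for about a day; IC50 from the dose curve.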
B1 was tested, and the “pseudovirus neutralization IC50” value was greater than 10 µg/mL.
B2 was tested, and the “pseudovirus neutralization IC50” value was greater than 10 µg/mL.
With B3 the “pseudovirus neutralization IC50” value was greater than 10 µg/mL.
B4 was tested, and the “pseudovirus neutralization IC50” value was greater than 10 µg/mL.
In the case of B5, the “pseudovirus neutralization IC50” value is reported as 1.55 µg/mL.
In the case of B6, the “pseudovirus neutralization IC50” value is reported as greater than 10 µg/mL.
With B7 the “pseudovirus neutralization IC50” value was greater than 10 µg/mL.
B8 was tested, and the “pseudovirus neutralization IC50” value was greater than 10 µg/mL.
In the case of B9, the “pseudovirus neutralization IC50” value is reported as greater than 10 µg/mL.
B10 was tested, and the “pseudovirus neutralization IC50” value was greater than 10 µg/mL.
In the case of B11, the “pseudovirus neutralization IC50” value is reported as greater than 10 µg/mL.
For B12, the “pseudovirus neutralization IC50” value was greater than 10 µg/mL.

What follows are binders tested against SARS-CoV-2 Omicron BA.2 spike pseudovirus in the same assay as above.
Protocol: as §1
With B1 the “pseudovirus neutralization IC50” value was greater than 10 µg/mL.
With B2 the “pseudovirus neutralization IC50” value was greater than 10 µg/mL.
For B3, the “pseudovirus neutralization IC50” value was greater than 10 µg/mL.
In the case of B4, the “pseudovirus neutralization IC50” value is reported as greater than 10 µg/mL.
For B5, the “pseudovirus neutralization IC50” value was 1.34 µg/mL.
B6 was tested, and the “pseudovirus neutralization IC50” value was greater than 10 µg/mL.
In the case of B7, the “pseudovirus neutralization IC50” value is reported as greater than 10 µg/mL.
For B8, the “pseudovirus neutralization IC50” value was greater than 10 µg/mL.
For B9, the “pseudovirus neutralization IC50” value was greater than 10 µg/mL.
With B10 the “pseudovirus neutralization IC50” value was greater than 10 µg/mL.
B11 was tested, and the “pseudovirus neutralization IC50” value was greater than 10 µg/mL.
In the case of B12, the “pseudovirus neutralization IC50” value is reported as greater than 10 µg/mL.

Each binder was assayed against SARS-CoV-2 Omicron BA.2.75 spike pseudovirus in the same assay as above.
Protocol: as §1
B1 was tested, and the “pseudovirus neutralization IC50” value was greater than 10 µg/mL.
With B2 the “pseudovirus neutralization IC50” value was greater than 10 µg/mL.
B3 was tested, and the “pseudovirus neutralization IC50” value was greater than 10 µg/mL.
For B4, the “pseudovirus neutralization IC50” value was greater than 10 µg/mL.
In the case of B5, the “pseudovirus neutralization IC50” value is reported as 1.08 µg/mL.
In the case of B6, the “pseudovirus neutralization IC50” value is reported as greater than 10 µg/mL.
With B7 the “pseudovirus neutralization IC50” value was greater than 10 µg/mL.
For B8, the “pseudovirus neutralization IC50” value was greater than 10 µg/mL.
With B9 the “pseudovirus neutralization IC50” value was greater than 10 µg/mL.
With B10 the “pseudovirus neutralization IC50” value was greater than 10 µg/mL.
In the case of B11, the “pseudovirus neutralization IC50” value is reported as greater than 10 µg/mL.
In the case of B12, the “pseudovirus neutralization IC50” value is reported as greater than 10 µg/mL.

Each binder was assayed against SARS-CoV-2 Omicron BA.5 spike pseudovirus in the same assay as above.
Protocol: as §1
With B1 the “pseudovirus neutralization IC50” value was greater than 10 µg/mL.
With B2 the “pseudovirus neutralization IC50” value was greater than 10 µg/mL.
With B3 the “pseudovirus neutralization IC50” value was greater than 10 µg/mL.
With B4 the “pseudovirus neutralization IC50” value was greater than 10 µg/mL.
B5 was tested, and the “pseudovirus neutralization IC50” value was 2.01 µg/mL.
For B6, the “pseudovirus neutralization IC50” value was greater than 10 µg/mL.
For B7, the “pseudovirus neutralization IC50” value was greater than 10 µg/mL.
In the case of B8, the “pseudovirus neutralization IC50” value is reported as greater than 10 µg/mL.
With B9 the “pseudovirus neutralization IC50” value was greater than 10 µg/mL.
With B10 the “pseudovirus neutralization IC50” value was greater than 10 µg/mL.
B11 was tested, and the “pseudovirus neutralization IC50” value was greater than 10 µg/mL.
With B12 the “pseudovirus neutralization IC50” value was greater than 10 µg/mL.

These binders were tested against SARS-CoV-2 Omicron BQ.1.1 spike pseudovirus in the same assay as above.
Protocol: as §1
B1 was tested, and the “pseudovirus neutralization IC50” value was greater than 10 µg/mL.
In the case of B2, the “pseudovirus neutralization IC50” value is reported as greater than 10 µg/mL.
With B3 the “pseudovirus neutralization IC50” value was greater than 10 µg/mL.
B4 was tested, and the “pseudovirus neutralization IC50” value was greater than 10 µg/mL.
In the case of B5, the “pseudovirus neutralization IC50” value is reported as 1.53 µg/mL.
With B6 the “pseudovirus neutralization IC50” value was greater than 10 µg/mL.
For B7, the “pseudovirus neutralization IC50” value was greater than 10 µg/mL.
For B8, the “pseudovirus neutralization IC50” value was greater than 10 µg/mL.
With B9 the “pseudovirus neutralization IC50” value was greater than 10 µg/mL.
B10 was tested, and the “pseudovirus neutralization IC50” value was greater than 10 µg/mL.
In the case of B11, the “pseudovirus neutralization IC50” value is reported as greater than 10 µg/mL.
B12 was tested, and the “pseudovirus neutralization IC50” value was greater than 10 µg/mL.

What follows are binders tested against SARS-CoV-2 Omicron XBB spike pseudovirus in the same assay as above.
Protocol: as §1
With B1 the “pseudovirus neutralization IC50” value was greater than 10 µg/mL.
With B2 the “pseudovirus neutralization IC50” value was greater than 10 µg/mL.
With B3 the “pseudovirus neutralization IC50” value was greater than 10 µg/mL.
For B4, the “pseudovirus neutralization IC50” value was greater than 10 µg/mL.
B5 was tested, and the “pseudovirus neutralization IC50” value was 2.54 µg/mL.
For B6, the “pseudovirus neutralization IC50” value was greater than 10 µg/mL.
In the case of B7, the “pseudovirus neutralization IC50” value is reported as greater than 10 µg/mL.
In the case of B8, the “pseudovirus neutralization IC50” value is reported as greater than 10 µg/mL.
With B9 the “pseudovirus neutralization IC50” value was greater than 10 µg/mL.
In the case of B10, the “pseudovirus neutralization IC50” value is reported as greater than 10 µg/mL.
B11 was tested, and the “pseudovirus neutralization IC50” value was greater than 10 µg/mL.
In the case of B12, the “pseudovirus neutralization IC50” value is reported as greater than 10 µg/mL.

Each binder was assayed against SARS-CoV-2 early D614G spike pseudovirus in the same assay as above.
Protocol: as §1
In the case of B1, the “pseudovirus neutralization IC50” value is reported as greater than 10 µg/mL.
For B2, the “pseudovirus neutralization IC50” value was 0.0615 µg/mL.
In the case of B3, the “pseudovirus neutralization IC50” value is reported as 0.384 µg/mL.
B4 was tested, and the “pseudovirus neutralization IC50” value was greater than 10 µg/mL.
With B5 the “pseudovirus neutralization IC50” value was 7.52 µg/mL.
With B6 the “pseudovirus neutralization IC50” value was 0.743 µg/mL.
In the case of B7, the “pseudovirus neutralization IC50” value is reported as greater than 10 µg/mL.
With B8 the “pseudovirus neutralization IC50” value was 5.82 µg/mL.
B9 was tested, and the “pseudovirus neutralization IC50” value was greater than 10 µg/mL.
B10 was tested, and the “pseudovirus neutralization IC50” value was 0.0931 µg/mL.
For B11, the “pseudovirus neutralization IC50” value was greater than 10 µg/mL.
B12 was tested, and the “pseudovirus neutralization IC50” value was 4.25 µg/mL.

— the supplement of paper PMC9931576
